Values from PubChem BioAssay AID1224833 (University of Georgia, 2016)
Screen: 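Host factors restraining rotavirus as candidate antiviral genes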 (primary screen). Cell system: monkey MA104 kidney cells. Knock-down reagent: siRNA pool against human genes, 50 nM. Duration: 48 h knock-down before infection; read 24 h after infection. Conditions: infection with rotavirus strain RV3 two days after transfection; infectious dose for this stage not given. Detection: 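z-score of rotavirus antigen signal per well, from a fluorescent immunoassay, relative to non-targeting control wells on the same plate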. Scale: z-score vs non-targeting control: higher = more rotavirus replication than with non-targeting control. Active means: In these data the active calls have z-score vs non-targeting control at about -1 or lower, or at about 1 or higher. Calls: active = z-score beyond 1 either way; inactive = z-score within 1 of zero.
This is an unselected part of about 12,000 deposited reagents. In the full data, about 5,600 (46%) were called active. 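Active calls cover z-scores past 1 in both directions, so they include lowered as well as raised rotavirus replication.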 A number with no mark means an inactive call.

Target gene | z-score vs non-targeting control
MRPL35 | -0.62
MSLN | -0.718
KRT16 | -0.974
BAGE5 | 1.06 (active)
MIEN1 | -0.714
NCAPH2 | -0.463
TRAPPC6B | -2.65 (active)
SBNO2 | -1.61 (active)
RCL1 | 0.15
GRHL2 | 0.0044
COX20 | 3.97 (active)
TXNDC17 | -0.521
OR52K1 | -0.642
COPS6 | -1.34 (active)
IGIP | -0.971
DSPP | -1.69 (active)
SH3BP4 | -2.26 (active)
LCT | -0.889
TNKS2 | -0.697
DYNLRB2 | -1.34 (active)
CNTLN | -0.457
PRR23B | -0.8
DBNDD2 | -2.66 (active)
FOLR1 | -2.05 (active)
UGT2A1 | -0.892
HSD17B6 | -2.23 (active)
ME1 | 1.47 (active)
SIVA1 | 0.646
NUP214 | -1.12 (active)
RAB27A | -0.725
GALNT17 | -0.585
MRPS31 | -0.506
TOGARAM1 | -0.761
TEX29 | 2.54 (active)
VIPR2 | -0.968
DPYD | -0.504
ZNF511 | -1.98 (active)

A portion taken from the entries so far:
Target gene | z-score vs non-targeting control
SBNO2 | -1.61 (active)
RCL1 | 0.15
GRHL2 | 0.0044
COX20 | 3.97 (active)
TXNDC17 | -0.521
OR52K1 | -0.642
COPS6 | -1.34 (active)
IGIP | -0.971
DSPP | -1.69 (active)
SH3BP4 | -2.26 (active)
LCT | -0.889
TNKS2 | -0.697

Continued.
Target gene | z-score vs non-targeting control
RHOV | 1.73 (active)
PLSCR2 | -0.738
NASP | -0.428
OAZ1 | -1.38 (active)
DSCAML1 | 0.858
AP5B1 | 1.84 (active)
HSPA8 | -1.32 (active)
OR2T12 | -0.582
IFNK | 0.257
GJD4 | -0.0956
CD3D | 1.48 (active)
NHLRC3 | 2.22 (active)
RDH14 | 0.591
DHDH | -0.62
ZNF782 | -2.12 (active)
BDNF | -2.31 (active)
ANKRD30A | -1.48 (active)
GPR15 | 1.98 (active)
TRERF1 | -1.54 (active)
RTN1 | -0.885
OR6B2 | -2.41 (active)
ABAT | -0.561
CHSY1 | -0.931
RSAD2 | -0.634
CFAP47 | 0.0511
HDAC8 | -1.85 (active)
SCGB1D4 | 0.155
EIF4EBP3 | -0.262
OR8B4 | -0.882
LGSN | -0.968
DAZ3 | -1.15 (active)
OR4D1 | -1.46 (active)
ALOXE3 | 0.618
CPNE7 | -1.2 (active)
TNFRSF1A | 1.45 (active)
CCDC170 | -5.59 (active)
TBC1D9 | -0.594
SEC61G | -1.49 (active)
